Pooled drug test results. Numbers come from NIAID ChemDB, via PubChem.

Common to all: host cell toxicity; cell line: CEM; endpoint: CC50

Blank or dashed fields: not listed here. CCn: concentration that lowers growth or viability of the cells by n%. Conditions beyond the fields shown may differ between rows.

SMILES,read by,value
CC(C)CCCCCOP(=O)(COCCn1cnc2c(N)ncnc21)OCCCCCC(C)C,,>4 µg/mL
O=C(NC1CCCCC1)c1ccccc1SSc1ccccc1C(=O)NC1CCCCC1,,7 µM
Cc1ccc(C)c(C(C)S(=O)(=O)c2c(C)ccc[n+]2[O-])c1,,36 µg/mL
COc1ccc(S(=O)(=O)N(CC(C)C)C[C@@H](O)[C@H](Cc2ccccc2)NC(=O)[C@H](C)CS(C)(=O)=O)cc1,,>1000 µM
Cc1ccc(C)c(CS(=O)(=O)c2cccc[n+]2[O-])c1,,31 µg/mL
CCCOCN1c2ccccc2C(=O)NS1(=O)=O,,120 µg/mL
CCCCCCCCCC(=O)Oc1ccc(COP(=O)(OCCC#N)OP(=O)(O)OC[C@@H]2C=C[C@H](n3cc(C)c(=O)[nH]c3=O)O2)cc1,,86 µM
Nc1ccn([C@@H]2O[C@H](CO)C=C2F)c(=O)n1,,35.3 µM
COC(=O)Cn1c(=O)c(C)cn([C@H]2C=C[C@@H](CO[Si](C)(C)C(C)(C)C)O2)c1=O,,28 µM
C=C(C)[C@@H]1CC[C@]2(C(=O)NCCCCCCCC(=O)N[C@H](CO)C(=O)O)CC[C@]3(C)[C@H](CC[C@@H]4[C@@]5(C)CC[C@H](O)C(C)(C)[C@@H]5CC[C@]43C)[C@@H]12,,>3 µM
CC(C)C(=O)Oc1ccc(COP(=O)(OCc2ccc(OC(=O)C(C)C)cc2)OP(=O)([O-])OC[C@@H]2C=C[C@H](n3ccc(=O)[nH]c3=O)O2)cc1,,110 µM
Nc1ccn([C@@H]2C=C(F)[C@H](CO)O2)c(=O)n1,,>100 µM
COc1nc(N)c(N=C[C@@H](O)[C@H](O)[C@H](O)CO)c(=O)n1C,XTT,>220 µM
C[C@]1(CO)[C@H](Cn2cnc3c(=O)[nH]c(N)nc32)C1(F)F,,>100 µM
CC(=O)C(CCCCCCCCCn1c(=O)c(C)cn([C@@H]2O[C@H](CO[Si](C)(C)C(C)(C)C)C3(OS(=O)(=O)C=C3N)[C@H]2O[Si](C)(C)C(C)(C)C)c1=O)C(C)=O,,153 µM
N#Cc1ccc(NC(=O)c2ccccc2SSc2ccccc2C(=O)Nc2ccc(C#N)cc2)cc1,,30 µM
CCCCCCCC/C=C\CCCCCCCC(=O)Oc1ccc(COP(=O)(OCc2ccc(OC(=O)CCCCCCC/C=C\CCCCCCCC)cc2)OP(=O)(O)OC[C@@H]2C=C[C@H](n3cc(C)c(=O)[nH]c3=O)O2)cc1,,100 µM
O=C(Nc1ccc(Br)cc1)c1ccccc1SSc1ccccc1C(=O)Nc1ccc(Br)cc1,,40 µM
O=C(COC(=O)c1c2c(nc3ccccc13)/C(=C\c1ccco1)CCC2)NCCN1C(=O)CSC1=O,propidium iodide,>25 µM
COc1nc2nc([C@H](O)[C@@H](O)CO)cnc2c(=O)n1C,XTT,>220 µM
COC(=O)Cn1c(=O)c(C)cn([C@@H]2O[C@H](CO[Si](C)(C)C(C)(C)C)[C@@H](O)[C@H]2O[Si](C)(C)C(C)(C)C)c1=O,,14 µM
OC[C@H]1O[C@@H](c2cc(Cl)c(F)cc2F)C[C@@H]1O,,>250 µM
Nc1nc(Cl)c2ncn(CCOCP(=O)(O)O)c2n1,,>0.16 µg/mL
C[C@]1(Cn2cnc3c(=O)[nH]c(N)nc32)[C@H](COCP(=O)(O)O)C1(F)F,,>100 µM
CNOC(=O)Cn1c(=O)c(C)cn([C@@H]2O[C@H](CO[Si](C)(C)C(C)(C)C)[C@@H](O[Si](C)(C)C(C)(C)C)[C@H]2O)c1=O,,18 µM
Cc1cn([C@@H]2O[C@H](CO[Si](C)(C)C(C)(C)C)C3(OS(=O)(=O)C=C3N)[C@H]2O[Si](C)(C)C(C)(C)C)c(=O)n(CCCO/C(=C\C(=O)c2ccccc2)c2ccccc2)c1=O,,31 µM
Nc1ccn([C@@H]2S[C@H](CO)C=C2F)c(=O)n1,,>100 µM
CCNC(=O)NC(=O)C(C)OC(=O)c1c2c(nc3ccccc13)/C(=C\c1cccs1)CCC2,,26 µM
COC(=O)CCCCn1c(=O)c(C)cn([C@@H]2O[C@H](CO[Si](C)(C)C(C)(C)C)[C@@H](O)[C@H]2O[Si](C)(C)C(C)(C)C)c1=O,,22 µM
CC(C)CNC(=O)c1ccccc1SSc1ccccc1C(=O)NCC(C)C,,4.6 µM
C=C(C)[C@@H]1CC[C@]2(C(=O)NCCCCCCCC(=O)N[C@@H](CO)C(=O)O)CC[C@]3(C)[C@H](CC[C@@H]4[C@@]5(C)CC[C@H](O)C(C)(C)[C@@H]5CC[C@]43C)[C@@H]12,,>3 µM
NS(=O)(=O)c1ccc(NC(=O)c2ccc(SSc3ccc(C(=O)Nc4ccc(S(N)(=O)=O)cc4)cc3)cc2)cc1,,>100 µM
O=S(=O)(Cc1c(Cl)c(Cl)c(Cl)c(Cl)c1Cl)c1cccc[n+]1[O-],,1.2 µg/mL
CC(=O)C(CCCCCCn1c(=O)c(C)cn([C@@H]2O[C@H](CO[Si](C)(C)C(C)(C)C)C3(OS(=O)(=O)C=C3N)[C@H]2O[Si](C)(C)C(C)(C)C)c1=O)C(C)=O,,160 µM
CCCN(C[C@@H](O)[C@H](Cc1ccccc1)NC(=O)[C@H](C)CS(C)(=O)=O)S(=O)(=O)c1ccc(OC)cc1,,>1000 µM
Cc1cn([C@H]2C=C[C@@H](CO)O2)c(=O)[nH]c1=O,,>250 µM
O=c1ccn([C@H]2C=C[C@@H](CO)O2)c(=O)[nH]1,,>250 µM
CC(C)CCCCCOP(=O)(COCCn1cnc2c(=O)[nH]c(N)nc21)OCCCCCC(C)C,,>4 µg/mL
COc1ccc(S(=O)(=O)N(CCC(C)C)C[C@@H](O)[C@H](Cc2ccccc2)NC(=O)[C@H](C)CS(C)(=O)=O)cc1,,90 µM
COc1cccc(/C=C2/CCCc3c2nc2ccccc2c3C(=O)OCC(=O)NC(N)=O)c1OC,propidium iodide,>25 µM
NC(=O)c1cccc(SSc2cccc(C(N)=O)c2)c1,,101 µM
Cc1cn([C@@H]2O[C@H](CO[Si](C)(C)C(C)(C)C)[C@@H](O)[C@H]2O[Si](C)(C)C(C)(C)C)c(=O)n(Cc2nn[nH]n2)c1=O,,19 µM
CCCCN(C[C@@H](O)[C@H](Cc1ccccc1)NC(=O)[C@H](C)CS(C)(=O)=O)S(=O)(=O)c1ccc(OC)cc1,,>1000 µM
CCCCCCCCCC(=O)Oc1ccc(COP(=O)(OCc2ccc(OC(=O)CCCCCCCCC)cc2)OP(=O)([O-])OC[C@@H]2C=C[C@H](n3ccc(=O)[nH]c3=O)O2)cc1,,95 µM
Cc1cc(C)c(CS(=O)c2cccc[n+]2[O-])c(C)c1,,35 µg/mL
CC(C)Oc1ccc(NC(=O)c2ccccc2SSc2ccccc2C(=O)Nc2ccc(OC(C)C)cc2)cc1,,67 µM
CCC(C)NC(=O)C(C)OC(=O)c1c2c(nc3ccccc13)/C(=C\c1cccs1)CCC2,propidium iodide,2 µM
C=C(C)[C@@H]1CC[C@]2(C(=O)NCCCCCCCCC(=O)O)CC[C@]3(C)[C@H](CC[C@@H]4[C@@]5(C)CC[C@H](O)C(C)(C)[C@@H]5CC[C@]43C)[C@@H]12,,>3 µM
Cc1cn([C@@H]2O[C@H](CO[Si](C)(C)C(C)(C)C)[C@@H](O)[C@H]2O[Si](C)(C)C(C)(C)C)c(=O)n(CCC(=O)O)c1=O,,25 µM
CC(=O)/C=C(\C)OCCCCCCn1c(=O)c(C)cn([C@@H]2O[C@H](CO[Si](C)(C)C(C)(C)C)C3(OS(=O)(=O)C=C3N)[C@H]2O[Si](C)(C)C(C)(C)C)c1=O,,15 µM
C=C(C)[C@@H]1CC[C@]2(C(=O)NCCCCCCCC(=O)N[C@@H](CC(N)=O)C(=O)O)CC[C@]3(C)[C@H](CC[C@@H]4[C@@]5(C)CC[C@H](O)C(C)(C)[C@@H]5CC[C@]43C)[C@@H]12,,>3 µM
O=C(Nc1ccc(F)cc1)c1ccccc1SSc1ccccc1C(=O)Nc1ccc(F)cc1,,14 µM